## Potato spindle tuber viroid, loop 15: variant abundance in plants

PSTVd intermediate strain, loop 15: wild type GGAAACCGCUACUAC, pool pattern GGAAACCGNNNNNNC; upper and lower strand joined, each 5' to 3', the first 7 letters being the upper strand, closing pairs included.

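A pool of all variants was put on leaves of three Nicotiana benthamiana plants. Samples came from the inoculated region at 5 days, the leaf margin at 10 and upper systemic leaves at 12.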

Values are reads per thousand in the sample; higher means more abundant, 0 means not found.
Each value is the mean of three plants.
"Pool" is the share in the plasmid pool used as inoculum, on the same scale.
The inoculated region was read from the minus strand, the other sites from the plus strand.

sequence	pool	inoculated region	leaf margin	systemic leaves
GGAAACCGGGGUAGC	0.176	0.0624	0.0128	0
GGAAACCGUCUAGGC	0.256	0.176	0.0121	0.0158
GGAAACCGACUGUAC	0.224	0.321	0.0993	0.0565
GGAAACCGUAUGUCC	0.240	0.0828	0.0128	0
GGAAACCGCACUCAC	0.160	0.0893	0	0
GGAAACCGUCGCGUC	0.208	0.102	0	0.00537
GGAAACCGACUCAUC	0.224	0.226	0.0256	0.00537
GGAAACCGCAGCACC	0.256	0.0705	0.00742	0
GGAAACCGGUAAAUC	0.256	0.0774	0	0.00537
GGAAACCGACGAGUC	0.368	0.111	0.0262	0
GGAAACCGCUCUCGC	0.176	0.125	0.00539	0.00760
GGAAACCGUAGAACC	0.240	0.0323	0.0195	0.00760
GGAAACCGAGUGCGC	0.288	0.122	0	0
GGAAACCGUCAGCGC	0.288	0.109	0.0141	0
GGAAACCGUAACACC	0.400	0.0965	0.00668	0
GGAAACCGCGCAUCC	0.288	0.0613	0.0108	0
GGAAACCGAGGUCAC	0.240	0.115	0.0134	0
GGAAACCGUUACUGC	0.160	0.320	0.104	0.0363
GGAAACCGCUGGCUC	0.304	0.0826	0.0134	0
GGAAACCGGUUGGUC	0.208	0.0814	0.00539	0
GGAAACCGGUUAGUC	0.352	0.0962	0.0108	0.0206
GGAAACCGUCCCCCC	0.224	0.149	0.00668	0.00537
GGAAACCGGCAUUAC	0.272	0.286	0.101	0.0622
GGAAACCGGCCACAC	0.192	0.0930	0.0141	0
GGAAACCGGACCAUC	0.320	0.154	0	0.00537
GGAAACCGGUCUAGC	0.224	0.0730	0.0121	0
GGAAACCGUAGGGCC	0.256	0.0695	0.0121	0
GGAAACCGUGCACGC	0.272	0.158	0.00742	0.00537
GGAAACCGCCGGAUC	0.240	0.0955	0.0249	0
GGAAACCGAAGGUUC	0.240	0.258	0.142	0.00537
GGAAACCGCCAACAC	0.192	0.319	0.113	0.0638
GGAAACCGGAUGGGC	0.256	0.0694	0.0141	0.00537
GGAAACCGAACAGCC	0.224	0.0896	0.0328	0
GGAAACCGAUCUCGC	0.128	0.130	0	0.0107
GGAAACCGGCUUUGC	0.144	0.117	0.0134	0.00537
GGAAACCGACAGGGC	0.224	0.0696	0.0175	0
GGAAACCGCUCUUAC	0.192	0.336	0.160	0.0711
GGAAACCGCCGGGUC	0.192	0.288	0.110	0.0322
GGAAACCGGAUCAUC	0.336	0.0703	0.00668	0
GGAAACCGAUUAAAC	0.160	0.0686	0	0
GGAAACCGUACGGCC	0.320	0.120	0.0148	0
GGAAACCGACAAGAC	0.240	0.0998	0.0141	0

The opening 3 entries, copied out:

{"sequence": "GGAAACCGGGGUAGC", "pool": "0.176", "inoculated region": 0.0624, "leaf margin": 0.0128, "systemic leaves": 0}
{"sequence": "GGAAACCGUCUAGGC", "pool": "0.256", "inoculated region": 0.176, "leaf margin": 0.0121, "systemic leaves": 0.0158}
{"sequence": "GGAAACCGACUGUAC", "pool": "0.224", "inoculated region": 0.321, "leaf margin": 0.0993, "systemic leaves": 0.0565}

Wild type was 33.9 per thousand in the pool and the most common sequence in every sample (inoculated region 202, 200, 159; leaf margin 724, 746, 710; systemic leaves 856, 883, 880).
Samples held 43,870 to 66,106 reads, so the smallest values rest on one or two reads.
Sequences that differ at fixed positions probably stem from PCR or sequencing errors, and defective variants can be carried along by functional ones.

From the data files of Wu et al. 2024, doi:10.1371/journal.ppat.1012142.